Measured values from several laboratories, pooled; numbers as filed in NIAID ChemDB.

Shared fields: growth or infection tests; organism: Hepatitis C virus; read-out: inhibition

Blank or dashed fields: not listed here. Lines come from different laboratories, so protocols vary. Two numbers with a dash give a range or band. Inhibition is in % at the dose shown (toxicity tests: loss of growth or viability).

| SMILES | read by | dose | cell line | strain or isolate | value |
|---|---|---|---|---|---|
| COc1cc(Cc2cnc(/N=C3\C(=O)N(CN(C)C)c4ccc(F)cc43)nc2N)cc(OC)c1OC | - | 50 µg/mL | Huh7 | - | 100% |
| COc1cccc(N2CCN(CN3C(=O)/C(=N\c4ncc(Cc5cc(OC)c(OC)c(OC)c5)c(N)n4)c4cc(Br)ccc43)CC2)c1 | replicon | 50 µg/mL | Huh7 | - | 6% |
| CC1(C)CC[C@@]2(C(=O)NCc3cn(CCn4cc(CNC(=O)[C@]56CCC(C)(C)CC5C5=CCC7[C@@]8(C)CC[C@H](O)C(C)(C)C8CC[C@@]7(C)[C@]5(C)C[C@H]6O)nn4)nn3)C(C1)C1=CCC3[C@@]4(C)CC[C@H](O)C(C)(C)C4CC[C@@]3(C)[C@]1(C)C[C@H]2O | luciferase / entry | 5 µM | Huh7 | - | 68.2% |
| COc1cc(/C=C/C(=O)CC(=O)/C=C/c2ccc(O)c(OC)c2)ccc1O | luciferase / reporter gene | 5 µM | Huh7/Rep-Feo cells | - | 0–20% |
| Nc1ccn([C@@H]2O[C@H](CO)[C@@H](O)[C@H]2F)c(=O)n1 | replicon | 5 µM | Huh7 | - | 90% |
| O=C(N[C@@H](C(=O)N1CCC[C@H]1c1ncc(-c2ccc(-c3ccc(-c4cnc([C@@H]5CCCN5C(=O)[C@H](NC(=O)C5CC5)c5ccccc5)s4)cc3)cc2)s1)c1ccccc1)C1CC1 | luciferase | 0.0004647 µM | Huh7.5 | genotype 2a JFH1 | 90% |
| CC1(C)CC[C@]2(C(=O)O)[C@H](O)C[C@]3(C)C(=CC[C@@H]4[C@@]5(C)CC[C@H](O)C(C)(C)[C@@H]5CC[C@]43C)[C@@H]2C1 | luciferase / entry | 5 µM | Huh7 | - | 77.7% |
| CC1(C)CC[C@]2(C(=O)O)[C@H](O)C[C@]3(C)C(=CC[C@@H]4[C@@]5(C)CC[C@H](O)C(C)(C)[C@@H]5CC[C@]43C)[C@@H]2C1 | luciferase / entry | 1 µM | Huh7 | - | 27.5% |
| COC(=O)/C=C1\S/C(=N/N=C/c2cc(OC)c(O)c(OC)c2)NC1=O | luciferase / luminescence | 31.4 µM | Huh 5-2 | 1b Con1 (replicon) | 54.1% |
| CCOc1ccc2nc(NC(=O)Nc3cccc(OC)c3)sc2c1 | PCR | 9.8 µM | Huh7.5 | - | 90% |
| CN(C)CCCn1cnc2c(=O)oc3ccccc3c21 | luciferase / reporter gene | 50 µM | Huh7 | GT1b | 59% |
| CCCC[C@H](NC(=O)[C@@H]1[C@@H]2[C@H](CN1C(=O)[C@@H](NC(=O)NC1(CS(=O)(=O)C(C)(C)C)CCCCC1)C(C)(C)C)C2(C)C)C(=O)C(=O)NC1CC1 | MTS | 0.04 µM | Huh7 | 1b | 90% |
| COc1cc(Cc2cnc(/N=C3\C(=O)N(CN4CCN(c5c(F)cc6c(=O)c(C(=O)O)cn(C7CC7)c6c5OC)CC4C)c4ccc(Br)cc43)nc2N)cc(OC)c1OC | replicon | 50 µg/mL | Huh7 | - | 20% |
| CC1(C)CC[C@@]2(C(=O)NCCCCCCNC(=O)[C@]34CCC(C)(C)CC3C3=CCC5[C@@]6(C)CC[C@H](O)C(C)(C)C6CC[C@@]5(C)[C@]3(C)C[C@H]4O)C(C1)C1=CCC3[C@@]4(C)CC[C@H](O)C(C)(C)C4CC[C@@]3(C)[C@]1(C)C[C@H]2O | luciferase / entry | 1 µM | Huh7 | - | 61.7% |
| COc1cc(Cc2cnc(/N=C3\C(=O)N(CN4CCCC4)c4ccc(C)cc43)nc2N)cc(OC)c1OC | - | 50 µg/mL | Huh7 | - | 90% |
| CC1(O)C(O)[C@]2(CO)CC2[C@H]1n1cnc2c(N)ncnc21 | replicon | 100 µM | Huh7 | - | 0% |
| Oc1cc(O)c2c(c1)O[C@H](c1cc(O)c(O)c(O)c1)[C@H](O)C2 | luciferase | 50 µM | - | 1a | 80% |
| O=C(Nc1ccc(Cl)cc1)c1cc(-n2cccc2)n(-c2ccccc2)n1 | PCR | 6 µM | Huh5-2 replicon cells | Jc1 | 68% |
| O=C1NC(=Nc2nnc(-c3ccccc3F)s2)SC1=Cc1c(Cl)cccc1Cl | luciferase | 50 µM | Huh7 | GT1b | 97% |
| Nc1ccn([C@@H]2O[C@H](CO)[C@@H](O)[C@H]2F)c(=O)n1 | replicon | 5 µM | Huh7 | - | 90% |
| COc1cc(Cc2cnc(/N=C3\C(=O)N(CN4CCN(c5cccc(Cl)c5)CC4)c4ccc(F)cc43)nc2N)cc(OC)c1OC | - | 50 µg/mL | Huh7 | - | 92% |
| O=C(Nc1ccccc1)c1cc(-n2cccc2)n(-c2ccccc2)n1 | PCR | 10 µM | Huh5-2 replicon cells | Jc1 | 70% |
| COc1ccc(CC2C(=O)NC(=O)N(c3ccc4c(c3)OCO4)C2=O)cc1O | luciferase / replicon | 50 µM | Huh7/Rep-Feo1b | 1b | 25.3% |
| COc1cc(Cc2cnc(/N=C3\C(=O)N(CN4CCCCC4)c4ccc(C)cc43)nc2N)cc(OC)c1OC | - | 50 µg/mL | Huh7 | - | 99% |
| CCn1cc(C(=O)O)c(=O)c2cc(F)c(N3CCN(CN4C(=O)/C(=N\c5ncc(Cc6cc(OC)c(OC)c(OC)c6)c(N)n5)c5cc(Br)ccc54)C(C)C3)c(F)c21 | replicon | 50 µg/mL | Huh7 | - | 20% |
| CN(C(=O)c1ccncc1)c1cc(C(F)(F)F)ccc1N1CCCCC1 | luciferase / replicon | 30 µM | Huh7/Rep-Feo-2a | 2a | 20–50% |
| CCN(CC)CN1C(=O)/C(=N\c2ncc(Cc3cc(OC)c(OC)c(OC)c3)c(N)n2)c2cc(F)ccc21 | - | 50 µg/mL | Huh7 | - | 82% |
| COC(=O)/C=C1\S/C(=N/N=C/C2CCCCC2)NC1=O | luciferase / luminescence | 30.1 µM | Huh 5-2 | 1b Con1 (replicon) | 62.6% |
| COc1cc([C@@H]2O[C@H](c3cc(OC)c4c(c3)OCO4)[C@@H](C)[C@@H]2C)cc(OC)c1OC | luciferase | 12.5 µM | Huh7.5 | Subgenomic replicon JFH-1 | 92% |
| Cc1ccc2nc(Nc3ccc([N+](=O)[O-])cc3)sc2c1 | luciferase | 5 µM | Huh7 | - | 12% |
| O=C1NC(=Nc2nnc(-c3cccnc3)s2)SC1=Cc1cccc(F)c1 | luciferase | 50 µM | Huh7 | GT1b | 69% |
| CC1(C)CC[C@@]2(C(=O)NCc3cn(Cc4ccccc4Cn4cc(CNC(=O)[C@]56CCC(C)(C)CC5C5=CCC7[C@@]8(C)CC[C@H](O)C(C)(C)C8CC[C@@]7(C)[C@]5(C)C[C@H]6O)nn4)nn3)C(C1)C1=CCC3[C@@]4(C)CC[C@H](O)C(C)(C)C4CC[C@@]3(C)[C@]1(C)C[C@H]2O | luciferase / entry | 1 µM | Huh7 | - | 51.5% |
| Nc1nc2c(ncn2[C@@H]2O[C@H](CO)[C@@H](O)[C@@H]2F)c(=O)[nH]1 | replicon | 20 µM | Huh7 | - | 62% |
| COc1cccc(-c2ccccc2NC(=O)C2CCN(Cc3cccc4ccccc34)CC2)c1 | PCR | 15 µM | Huh7 | JFH-1 | ≥40% |
| COC(=O)/C=C1\S/C(=N/N=C/c2cc([N+](=O)[O-])ccc2O)NC1=O | luciferase / luminescence | 4.79 µM | Huh 5-2 | 1b Con1 (replicon) | 64.5% |
| Cc1c(C(=O)NN2CCCCC2)nn(-c2ccc(Cl)cc2Cl)c1-c1ccc(I)cc1 | PCR | 10 µM | Huh7 | JFH-1 | 70% |
| CCOC(=O)Cn1nnnc1CN(Cc1ccc(F)cc1)Cc1cc2cc(CC)ccc2[nH]c1=O | luciferase / replicon | 50 µM | Huh7/Rep-Feo1b | 1b | 91.2% |
| Nc1nc2c(cnn2[C@H](C=O)O[C@@H](C=O)CO)c(=O)[nH]1 | luciferase / reporter gene | 50 µM | Huh7.5 | GT2a | 38% |
| COC(=O)N[C@H](C(=O)N1CCC[C@H]1c1ncc(-c2ccc(-c3ccc(-c4cnc([C@@H]5CCCN5C(=O)[C@@H](NC(=O)OC)C(C)C)[nH]4)cc3)cc2)[nH]1)C(C)C | replicon | 20 pM | - | 1b | 90% |
| O=C1NC(=Nc2nnc(-c3c(F)cccc3Cl)s2)SC1=Cc1cccc(F)c1 | luciferase | 50 µM | Huh7 | GT1b | 97% |
| CNc1ncnc2c1ncn2[C@@H]1C2C[C@@]2(CO)C(O)C1(O)CO | replicon | 100 µM | Huh7 | - | 0% |
| C[C@@H]1[C@H](n2ccc(N)nc2=O)O[C@@](CO)(N=[N+]=[N-])[C@H]1O | replicon / PCR | 7.85 µM | Huh7 | - | 90% |
| COc1ccccc1N1CCN(CN2C(=O)/C(=N\c3ncc(Cc4cc(OC)c(OC)c(OC)c4)c(N)n3)c3cc(Br)ccc32)CC1 | replicon | 50 µg/mL | Huh7 | - | 55% |
| Cn1c(=O)c2c(ncn2C)n(C)c1=O | luciferase / replicon | 500 µM | Huh7.5 | J6/JFH | 40.6% |
| COC(=O)/C=C1\S/C(=N/N=C/c2ccccc2OCc2ccccc2)NC1=O | luciferase / luminescence | 12.7 µM | Huh 5-2 | 1b Con1 (replicon) | 82.8% |
| COc1cc(Cc2cnc(/N=C3\C(=O)N(CN4CCN(c5ccc([N+](=O)[O-])cc5)CC4)c4ccc(C)cc43)nc2N)cc(OC)c1OC | - | 50 µg/mL | Huh7 | - | 93% |
| Cc1cc(C)c2c(=O)[nH]c(SCC(=O)c3ccc(O)c(O)c3)nc2n1 | luciferase / replicon | 50 µM | Huh7/Rep-Feo1b | 1b | 80.9% |
| O=C(O)CCn1ncc2c(=O)[nH]cnc21 | luciferase / reporter gene | 50 µM | Huh7 | GT1b | 51% |
| CC(C)n1cc(CN2CCC(C(=O)Nc3cccc(-c4cccc(Cl)c4)c3)CC2)cn1 | PCR | 15 µM | Huh7 | JFH-1 | ≥40% |
| CC1(C)CC[C@@]2(C(=O)NCc3cn(CCCO)nn3)C(C1)C1=CCC3[C@@]4(C)CC[C@H](O)C(C)(C)C4CC[C@@]3(C)[C@]1(C)C[C@H]2O | luciferase / entry | 1 µM | Huh7 | - | 35.7% |
| COC(=O)/C=C1\S/C(=N/N=C/c2ccc(N(C)C)cc2)NC1=O | luciferase / luminescence | 41.6 µM | Huh 5-2 | 1b Con1 (replicon) | 78.8% |
| Nc1ncnc2c1ncn2[C@@H]1C2C[C@@]2(CO)C(O)C1(O)CO | replicon | 100 µM | Huh7 | - | 0% |
| CCCC[C@H](NC(=O)[C@@H]1[C@@H]2[C@H](CN1C(=O)[C@@H](NC(=O)NC1(CS(=O)(=O)C(C)(C)C)CCCCC1)C(C)(C)C)C2(C)C)C(=O)C(=O)NC1CC1 | replicon | 0.04 µM | - | - | 90% |
| O=C1NC(=Nc2nnc(-c3c(Cl)cccc3Cl)s2)SC1=Cc1c(Cl)cccc1Cl | luciferase | 50 µM | Huh7 | GT1b | 88% |
| COc1cccc([C@H]2C(C(=O)/C=C/c3ccccc3)=C(O)C(=O)N2CCCC(=O)O)c1 | luciferase / replicon | 50 µM | Huh7/Rep-Feo1b | 1b | 0% |
| O=C(N[C@@H](C(=O)N1CCC[C@H]1C(=O)Nc1nc(-c2ccccc2)cs1)c1ccccc1)C1CC1 | luciferase | 1.1746 µM | - | genotype 2a | 90% |
| Cc1c(C(=O)Nc2ccccc2)nn(-c2ccccc2)c1-n1cccc1 | PCR | 7 µM | Huh5-2 replicon cells | Jc1 | 82% |
| CC1(C)CC[C@]2(C(=O)O)CC[C@]3(C)C(=CC[C@@H]4[C@@]5(C)CC[C@H](O)C(C)(C)[C@@H]5CC[C@]43C)[C@@H]2C1 | luciferase / entry | 1 µM | Huh7 | - | 22.4% |
| COc1nc(N)nc2c1ncn2[C@@H]1O[C@H](COP(=O)(N[C@@H](C)C(=O)OC(C)C)Oc2ccccc2)[C@@H](O)[C@@]1(C)F | - | 0.0112 µM | - | JFH-1 | 90% |
| COc1cc(Cc2cnc(/N=C3\C(=O)N(CN4CCN(c5ccccn5)CC4)c4ccc(C)cc43)nc2N)cc(OC)c1OC | - | 50 µg/mL | Huh7 | - | 72% |
| O=c1[nH]cnc2c1cnn2Cc1ccccc1 | luciferase / reporter gene | 50 µM | Huh7 | GT1b | 91% |
| COc1cc(Cc2cnc(/N=C3\C(=O)N(CN4CCN(c5ccc(Cl)cc5)CC4)c4ccc(C)cc43)nc2N)cc(OC)c1OC | - | 50 µg/mL | Huh7 | - | 90% |
| C[C@@H]1OC(Nc2cccc(NC3O[C@H](C)C(O)C(O)C3O)c2)C(O)C(O)C1O | luciferase / replicon | 50 µM | Huh7/Rep-Feo1b | 1b | 16.9% |
| COc1ccc(CN2CCC(C(=O)Nc3ccc(Oc4ccccc4F)cc3)CC2)c(O)c1 | PCR | 5 µM | Huh7 | JFH-1 | ≥70% |
| COc1cc(Cc2cnc(/N=C3\C(=O)N(CN4CCN(c5cccc(C(F)(F)F)c5)CC4)c4ccc(C)cc43)nc2N)cc(OC)c1OC | - | 50 µg/mL | Huh7 | - | 87% |